Measured data: PubChem BioAssay AID504761 (Drosophila RNAi Screening Center, 2011)
In all, the deposit lists about 22,000 reagents; below is a random part of those that have a named target and a result. Of all reagents, 116 (0.52%) were called active. 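Calls depend on retest data that are not deposited; infection was ranked per plate without normalising between plates; the unit of the infection score is not given.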 Raw values are not corrected between plates. Names joined by + are all predicted targets of the reagent. No sequences are given here. The record does not give: the amount of reagent, the time to read-out.

Assay: 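Genome-wide fly cell screen for genes dengue virus requires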 (primary screen)
Cell system: D.Mel-2 cells from Drosophila
Knock-down reagent: long dsRNA against Drosophila genes
Treatment: infection with dengue virus type 2; dose and infection time not stated
Measurement: 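Cells stained for dengue envelope protein and imaged; percent of infected cells per well on duplicate plates, ranked by infection, with stained nuclei counted for cell number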
Direction: infection score: higher = more virus-infected cells; cell count: higher = more cells in the well
Call rule: 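Very low infection ranking in both replicate wells (chance probability at most 0.065), then a retest showing infection dropped 1.5-fold or more at p below 0.05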
Meaning of the calls: active = confirmed: knock-down lowers infection; inactive = not picked or not confirmed

gene | dsRNA | infection score, replicate 1 | infection score, replicate 2 | cell count, replicate 1 | cell count, replicate 2 | Call
lncRNA:sphinx + ATPsynF | DRSC17191 | 6.18 | 3.51 | 5004 | 4472 | inactive
MED30 | DRSC23135 | 5 | 21.2 | 6739 | 7180 | inactive
MED30 | DRSC30026 | 47.3 | 7.96 | 4104 | 5565 | inactive
CG14269 | DRSC17912 | 4.24 | 11.3 | 6598 | 4055 | inactive
CR31700 | DRSC03682 | 0.98 | 0.87 | 6766 | 6698 | inactive
CG32856 | DRSC13124 | 0.63 | 0.25 | 6312 | 6305 | inactive
CG32856 | DRSC29746 | 10.3 | – | 6373 | 323 | inactive
CG3566 | DRSC18311 | 2.18 | 3.77 | 6281 | 6794 | inactive
CG3566 | DRSC29311 | – | – | – | 231 | inactive
CG10973 | DRSC09813 | 5.9 | 10.7 | 6372 | 6382 | inactive
His2B:CG33870 + His2B:CG33868 + His2B:CG33882 + 21 more | DRSC03757 | 8.13 | 12.2 | 6791 | 6601 | inactive
Dad | DRSC16642 | 7.47 | 10.2 | 7086 | 7046 | inactive
Dad | DRSC28345 | 8.1 | 12 | 6087 | 5473 | inactive
CG32473 | DRSC14352 | 7.87 | 6.03 | 6834 | 6967 | inactive
CG32473 | DRSC16446 | 24.3 | 32.8 | 5497 | 5408 | inactive
Sema1a | DRSC03433 | 4.53 | 1.88 | 6121 | 6699 | inactive
CG12729 | DRSC17884 | 7 | 25 | 3114 | 5084 | inactive
CG12729 | DRSC27092 | 7.53 | 13 | 6670 | 6752 | inactive
CG6191 | DRSC23127 | 1.24 | 5.21 | 6526 | 6779 | inactive
Cdc27 | DRSC11112 | 9.95 | 7.64 | 2261 | 2250 | inactive
Cdc27 | DRSC23438 | 2.11 | 26.4 | 855 | 1518 | inactive
CG17917 | DRSC12570 | 2.94 | 3.76 | 6915 | 6856 | inactive

Targets listed so far whose gene name starts with D or d:
gene | dsRNA | infection score, replicate 1 | infection score, replicate 2 | cell count, replicate 1 | cell count, replicate 2 | Call
Dad | DRSC16642 | 7.47 | 10.2 | 7086 | 7046 | inactive
Dad | DRSC28345 | 8.1 | 12 | 6087 | 5473 | inactive

Additional entries follow:
gene | dsRNA | infection score, replicate 1 | infection score, replicate 2 | cell count, replicate 1 | cell count, replicate 2 | Call
Cyp4g15 | DRSC20240 | 8.05 | 10.6 | 4760 | 5933 | inactive
boi | DRSC18425 | 4.25 | 1.29 | 6207 | 6990 | inactive
boi | DRSC18598 | 3.45 | 1.84 | 6815 | 6463 | inactive
boi | DRSC25851 | 6.69 | 5.32 | 5774 | 6151 | inactive
CG32544 | DRSC20033 | 4.44 | 1.31 | 5834 | 6166 | inactive
CG32544 | DRSC25570 | 10.2 | 23.1 | 6860 | 5839 | inactive
Ns2 | DRSC06993 | 0.63 | 6.17 | 480 | 2803 | inactive
Ns2 | DRSC29008 | – | 18 | 247 | 4087 | inactive
Rrp47 | DRSC20124 | 4.89 | 2.54 | 6216 | 6372 | inactive
Rrp47 | DRSC25568 | 5.48 | 5.68 | 6520 | 6641 | inactive
CG8366 | DRSC07153 | 17.7 | 6.44 | 6286 | 7055 | inactive
Lamtor5 | DRSC18491 | – | 10.1 | 328 | 3267 | inactive
ninaC | DRSC03579 | 13.8 | 1.66 | 6145 | 6392 | inactive
ninaC | DRSC29875 | 11 | 10.2 | 5301 | 5854 | inactive
DNaseII | DRSC16310 | – | 9.71 | 412 | 4553 | inactive
Spn28B | DRSC02982 | 2.99 | 7.09 | 6222 | 5910 | inactive
CG5399 | DRSC15791 | 2.14 | 2.98 | 6116 | 6608 | inactive
CG5399 | DRSC25357 | 3.74 | 2.19 | 6844 | 6297 | inactive
CG31776 | DRSC00716 | 4.73 | 4.27 | 6786 | 6397 | inactive
Gem4b + Gem4c | DRSC17294 | 3.72 | 6.28 | 6163 | 6578 | inactive
CG8236 | DRSC16399 | 2.62 | 7.71 | 6072 | 6395 | inactive
CG8236 | DRSC26321 | 3.6 | 1.35 | 6355 | 6142 | inactive
CG14135 | DRSC10140 | 1.22 | 2.83 | 6043 | 6437 | inactive
sqz | DRSC16980 | 7 | 7.03 | 6301 | 6654 | inactive
sqz | DRSC28971 | – | 23.4 | 439 | 6319 | inactive
LysRS | DRSC17824 | 2.18 | 1 | 6601 | 6721 | inactive
LysRS | DRSC25618 | 6.88 | 5.05 | 5318 | 5401 | inactive
CG33285 | DRSC11463 | 0.51 | 0.31 | 5939 | 4141 | inactive
CG33285 | DRSC26954 | 5.98 | 13.8 | 6523 | 6318 | inactive
BBS8 | DRSC00360 | 16.5 | 9.17 | 6364 | 7013 | inactive
BBS8 | DRSC27758 | 33.6 | 33.1 | 4920 | 4889 | inactive
CG11030 | DRSC02120 | 2.04 | 4.39 | 5347 | 6081 | inactive
CG11030 | DRSC23703 | 1.81 | 5.63 | 5529 | 5830 | inactive
Prosalpha1R + Prosalpha1 | DRSC07515 | – | 12.1 | 530 | 1804 | inactive
Prosalpha1R + Prosalpha1 | DRSC29087 | 0.97 | 20 | 932 | 6195 | inactive
CG15115 | DRSC06537 | 6.73 | 2.8 | 6831 | 6353 | inactive
